Data from patent US20200024330A1 (published 2020).

Assays:
Experiment in all cases: cell-based or functional assay
[1] = biological target: HIV-1 Env of isolate MG RM-A-002 (HIV-1)
[2] = biological target: HIV-1 Env of isolate 92BR020 (HIV-1)
[3] = biological target: HIV-1 Env of isolate 94UG103 (HIV-1)
[4] = biological target: HIV-1 Env of isolate MGRM-C-026 (HIV-1)
[5] = biological target: HIV-1 Env of isolate MG RM-C-001 (HIV-1)
[6] = biological target: HIV-1 Env of isolate MG RM-C-002 (HIV-1)
[7] = biological target: HIV-1 Env of isolate MG RM-C-004 (HIV-1)
[8] = biological target: HIV-1 Env of isolate MG RM-C-005 (HIV-1)
[9] = biological target: HIV-1 Env of isolate MG RM-C-006 (HIV-1)
[10] = biological target: HIV-1 Env of isolate MG RM-C-007 (HIV-1)
[11] = biological target: HIV-1 Env of isolate MG RM-C-008 (HIV-1)
[12] = biological target: HIV-1 Env of isolate MG RM-C-013 (HIV-1)
[13] = biological target: HIV-1 94UG103 envelope protein (Env) on pseudovirus (HIV-1)
[14] = biological target: HIV-1 92RW020 envelope protein (Env) on pseudovirus (HIV-1)
[15] = biological target: HIV-1 93UG077 envelope protein (Env) on pseudovirus (HIV-1)
[16] = biological target: HIV-1 92BR020 envelope protein (Env) on pseudovirus (HIV-1)
[17] = biological target: HIV-1 APV-13 envelope protein (Env) on pseudovirus (HIV-1)
[18] = biological target: HIV-1 APV-17 envelope protein (Env) on pseudovirus (HIV-1)
[19] = biological target: HIV-1 APV-6 envelope protein (Env) on pseudovirus (HIV-1)
[20] = biological target: HIV-1 93IN905 envelope protein (Env) on pseudovirus (HIV-1)
[21] = biological target: HIV-1 IAVI-C18 envelope protein (Env) on pseudovirus (HIV-1)
[22] = biological target: HIV-1 IAVI-C22 envelope protein (Env) on pseudovirus (HIV-1)
[23] = biological target: HIV-1 IAVI-C3 envelope protein (Env) on pseudovirus (HIV-1)
[24] = biological target: HIV-1 92UG024 envelope protein (Env) on pseudovirus (HIV-1)
[25] = biological target: HIV-1 92UG005 envelope protein (Env) on pseudovirus (HIV-1)
[26] = biological target: HIV-1 92TH021 envelope protein (Env) on pseudovirus (HIV-1)
[27] = biological target: HIV-1 CMU02 envelope protein (Env) on pseudovirus (HIV-1)
[28] = biological target: HIV-1 NL43 envelope protein (Env) on pseudovirus (HIV-1)
[29] = biological target: aMLV envelope protein on pseudovirus
[30] = biological target: HIV-1 Env of isolate MG RM-C-005 (HIV-1); remark: listed apart in the source
[31] = biological target: HIV-1 Env of isolate MG RM-A-002 (pseudovirus) (HIV-1)
[32] = biological target: HIV-1 Env of isolate MG RM-A-004 (pseudovirus) (HIV-1)
[33] = biological target: HIV-1 Env of isolate MG RM-C-010 (HIV-1)
[34] = biological target: HIV-1 Env of isolate MG RM-C-012 (HIV-1)
[35] = biological target: HIV-1 Env of isolate MG RM-A-003 (pseudovirus) (HIV-1)

B1: 5147_N06 (PGT-130) (antibody, V domains shown)
VH: QVQLQESGPGLVKPAETLSLTCSVSGESINTGHYYWGWVRQVPGKGLEWIGHIHYTTAVLHNPSLKSRLTIKIYTLRNQITLRLSNVTAADTAVYHCVRSGGDILYYYEWQKPHWFSPWGPGIHVTVSS
VL: QSALTQPPSASGSLGQSVTISCNGTSSDIGGWNFVSWYQQFPGRAPRLIIFEVNKRPSGVPGRFSGSKSGNSASLTVSGLQSDDEGQYFCSSLFGRWDVVFGGGTKLTVL
neutralization IC50 [1]: 0.01 µg/mL

B2: PGT-122 (antibody, V domains shown)
VH: QVHLQESGPGLVKPSETLSLTCNVSGTLVRDNYWSWIRQPLGKQPEWIGYVHDSGDTNYNPSLKSRVHLSLDKSKNLVSLRLTGVTAADSAIYYCATTKHGRRIYGVVAFKEWFTYFYMDVWGKGTSVTVSS
VL: TFVSVAPGQTARITCGEESLGSRSVIWYQQRPGQAPSLIIYNNNDRPSGIPDRFSGSPGSTFGTTATLTITSVEAGDEADYYCHIWDSRRPTNWVFGEGTTLIVL
Primary Neutralization Index (B cell culture well 4877_D15) [2]: 5.4
Primary Neutralization Index (B cell culture well 4877_D15) [3]: 1.3
Primary Neutralization Index (B cell culture well 4877_D15) [4]: 37.5

B3: PGT-145 (antibody, V domains shown)
VH: QVQLVQSGAEVKKPGSSVKVSCKASGNSFSNHDVHWVRQATGQGLEWMGWMSHEGDKTGLAQKFQGRVTITRDSGASTVYMELRGLTADDTAIYYCLTGSKHRLRDYFLYNEYGPNYEEWGDYLATLDVWGHGTAVTVSS
VL: EVVITQSPLFLPVTPGEAASLSCKCSHSLQHSTGANYLAWYLQRPGQTPRLLIHLATHRASGVPDRFSGSGSGTDFTLKISRVESDDVGTYYCMQGLHSPWTFGQGTKVEIK
neutralization IC50 [5]: > 50 µg/mL
neutralization IC50 [6]: 0.008 µg/mL
neutralization IC50 [7]: > 50 µg/mL
neutralization IC50 [8]: > 50 µg/mL
neutralization IC50 [9]: 0.01 µg/mL
neutralization IC50 [10]: > 50 µg/mL
neutralization IC50 [11]: > 50 µg/mL
neutralization IC50 [12]: > 50 µg/mL

B4: 1460_G14 (PGG14) (antibody, V domains shown)
VH: QVLLVQSGTEVKKPGSSVKVSCQASGGAFSSYAFSWVRQAPGQGLEWMGMITPVFGETKYAPRFQGRLTLTAEESLSTTYMELRSLTSDDTAFYYCTRDRRVVPMATDNWLDPWGQGTLVTVSS
VL: DIQLTQSPSSLSASVGDRVTVTCRASQTIHTYLNWYQQIPGKAPKLLIYGASTLQSGVPSRFSGSGSGTDFTLTINSLQPEDFATYYCQQSYSTPRTFGQGTRLDIKR
neutralization IC50 [13]: > 50 µg/mL
neutralization IC50 [14]: > 50 µg/mL
neutralization IC50 [15]: > 50 µg/mL
neutralization IC50 [16]: > 50 µg/mL
neutralization IC50 [17]: > 50 µg/mL
neutralization IC50 [18]: > 50 µg/mL
neutralization IC50 [19]: > 50 µg/mL
neutralization IC50 [20]: > 50 µg/mL
neutralization IC50 [21]: > 50 µg/mL
neutralization IC50 [22]: > 50 µg/mL
neutralization IC50 [23]: > 50 µg/mL
neutralization IC50 [24]: > 50 µg/mL
neutralization IC50 [25]: > 50 µg/mL
neutralization IC50 [26]: > 50 µg/mL
neutralization IC50 [27]: > 50 µg/mL
neutralization IC50 [28]: 0.172 µg/mL
neutralization IC50 [29]: > 50 µg/mL

B5: 1456_P20 (PG20) (antibody, V domains shown)
VH: QVRLVQSGPEVKKPGSSVTVSCQASGGTFSSYAFTWVRQAPGQGLEWLGMVTPIFGEAKYSQRFEGRVTITADESTSTTSIELRGLTSEDTAIYYCARDRRAVPIATDNWLDPWGQGTLVTVSS
VL: DIQLTQSPSSLSASVGDRVSITCRASQTINNYLNWYQQTPGKAPKLLIYGASNLQNGVPSRFSGSGSGTDFTLTISSLQPEDFATYYCQQSFSTPRTFGQGTRLDIKR
neutralization IC50 [13]: > 50 µg/mL
neutralization IC50 [14]: > 50 µg/mL
neutralization IC50 [15]: > 50 µg/mL
neutralization IC50 [16]: > 50 µg/mL
neutralization IC50 [17]: > 50 µg/mL
neutralization IC50 [18]: > 50 µg/mL
neutralization IC50 [20]: > 50 µg/mL
neutralization IC50 [21]: > 50 µg/mL
neutralization IC50 [22]: > 50 µg/mL
neutralization IC50 [23]: > 50 µg/mL
neutralization IC50 [24]: > 50 µg/mL
neutralization IC50 [25]: > 50 µg/mL
neutralization IC50 [26]: > 50 µg/mL
neutralization IC50 [27]: > 50 µg/mL
neutralization IC50 [28]: 0.188 µg/mL
neutralization IC50 [29]: > 50 µg/mL

B6: 5114_A19 (PGT-128) (antibody, V domains shown)
VH: QPQLQESGPTLVEASETLSLTCAVSGDSTAACNSFWGWVRQPPGKGLEWVGSLSHCASYWNRGWTYHNPSLKSRLTLALDTPKNLVFLKLNSVTAADTATYYCARFGGEVLRYTDWPKPAWVDLWGRGTLVTVSS
VL: QSALTQPPSASGSPGQSITISCTGTSNNFVSWYQQHAGKAPKLVIYDVNKRPSGVPDRFSGSKSGNTASLTVSGLQTDDEAVYYCGSLVGNWDVIFGGGTKLTVL
neutralization IC50 [1]: 0.149 µg/mL

B7: 5114_A19 (PGT-128) (antibody, V domains shown)
VH: QPQLQESGPTLVEASETLSLTCAVSGDSTAACNSFWGWVRQPPGKGLEWVGSLSHCASYWNRGWTYHNPSLKSRLTLALDTPKNLVFLKLNSVTAADTATYYCARFGGEVLRYTDWPKPAWVDLWGRGTLVTVSS
VL: QSALTQPPSASGSPGQSITISCTGTSNNFVSWYQQHAGKAPKLVIYDVNKRPSGVPDRFSGSKSGNTASLTVSGLQTDDEAVYYCGSLVGNWDVIFGGGTKLTVL
IC50 [30]: 0.03 µg/mL

B8: 4995_E20 (PGT-142) (antibody, V domains shown)
VH: QVQLVQSGPEVKKPGSSVKVSCKASGNTFSKYDVHWVRQATGQGLEWVGWISHERDKTESAQRFKGRVTFTRDTSATTAYMELRGLTSDDTAIYYCTRGSKHRLRDYVLYDDYGLINYQEWNDYLEFLDVWGHGTAVTVSS
VL: DTVVTQSPLSLPVTPGEAASMSCSSTQSLRHSNGANYLAWYQHKPGQSPRLLIRLGSQRASGVPDRFSGSGSGTHFTLKISRVEAEDAAIYYCMQGLNRPWTFGKGTKLEIK
IC50 (µg/mL), pseudovirus neutralization [31]: 0.007 µg/mL
IC50 (µg/mL), pseudovirus neutralization [32]: 0.002 µg/mL

B9: PGT-142 (antibody, V domains shown)
VH: QVQLVQSGPEVKKPGSSVKVSCKASGNTFSKYDVHWVRQATGQGLEWVGWISHERDKTESAQRFKGRVTFTRDTSATTAYMELRGLTSDDTAIYYCTRGSKHRLRDYVLYDDYGLINYQEWNDYLEFLDVWGHGTAVTVSS
VL: DTVVTQSPLSLPVTPGEAASMSCSSTQSLRHSNGANYLAWYQHKPGQSPRLLIRLGSQRASGVPDRFSGSGSGTHFTLKISRVEAEDAAIYYCMQGLNRPWTFGKGTKLEIK
neutralization IC50 [5]: > 50 µg/mL
neutralization IC50 [7]: > 50 µg/mL
neutralization IC50 [10]: > 50 µg/mL
neutralization IC50 [11]: > 50 µg/mL
neutralization IC50 [33]: 0.07 µg/mL
neutralization IC50 [34]: > 50 µg/mL
neutralization IC50 [12]: > 50 µg/mL

B10: PGT-144 (antibody, V domains shown)
VH: QVQLVQSGAEVKKPGSSVKVSCKASGNTFRKYDVHWVRQATGQGLEWVGWMSHEGDKTESAQRFKGRVSFTRDNSASTAYIELRGLTSDDTAIYYCTGGSKHRLRDYVLYDDYGLINQQEWNDYLEFLDVWGHGTAVTVSS
VL: DTVVTQSPLSLSVTPGEAASMSCTSTQSLRHSNGANYLAWYQHKPGQSPRLLIRLGSQRASGVPDRFSGSGSGTHFTLKISRVEADDAAIYYCMQGLNRPWTFGKGTKLEIK
neutralization IC50 [5]: > 50 µg/mL
neutralization IC50 [6]: > 50 µg/mL
neutralization IC50 [7]: > 50 µg/mL
neutralization IC50 [8]: > 50 µg/mL
neutralization IC50 [10]: > 50 µg/mL
neutralization IC50 [11]: > 50 µg/mL
neutralization IC50 [34]: > 50 µg/mL
neutralization IC50 [12]: > 50 µg/mL

B11: 4970_K22 (PGT-144) (antibody, V domains shown)
VH: QVQLVQSGAEVKKPGSSVKVSCKASGNTFRKYDVHWVRQATGQGLEWVGWMSHEGDKTESAQRFKGRVSFTRDNSASTAYIELRGLTSDDTAIYYCTGGSKHRLRDYVLYDDYGLINQQEWNDYLEFLDVWGHGTAVTVSS
VL: DTVVTQSPLSLSVTPGEAASMSCTSTQSLRHSNGANYLAWYQHKPGQSPRLLIRLGSQRASGVPDRFSGSGSGTHFTLKISRVEADDAAIYYCMQGLNRPWTFGKGTKLEIK
IC50 (µg/mL), pseudovirus neutralization [35]: > 50 µg/mL
